From US20070190523A1 (priority 2002, published 2007)

Legend:
[1] = test system: recombinant HIV-1 54V/71V/82S; test: Cross-Resistance Profile Assay
[2] = test system: recombinant HIV-1 46I/84A; test: Cross-Resistance Profile Assay
[3] = test system: recombinant HIV-1 30N/50S/82I/88D; test: Cross-Resistance Profile Assay; format: cell-based
[4] = test system: recombinant HIV-1 8K/46I/90M; test: Cross-Resistance Profile Assay; format: cell-based
[5] = test system: recombinant HIV-1 46I/47V/50V; test: Cross-Resistance Profile Assay; format: cell-based
[6] = test system: recombinant HIV-1 10R/46I/82T/84V; test: Cross-Resistance Profile Assay
[7] = test system: recombinant HIV-1 10I/48V/54V/82A; test: Cross-Resistance Profile Assay
[8] = test system: recombinant HIV-1 10F/46I/71V/82T/90M; test: Cross-Resistance Profile Assay; format: cell-based
[9] = test system: recombinant HIV-1 48V/54V/71V/82S; test: Cross-Resistance Profile Assay; format: cell-based
[10] = test system: mutant HIV-1 with I84V/L90M mutations; format: cell-based; settings: fold difference in EC50 vs wild type, class symbols

| Structure (SMILES) | Fold Change in EC50 Relative to WT HIV-1 [1] | Fold Change in EC50 Relative to WT HIV-1 [2] | Fold Change in EC50 Relative to WT HIV-1 [3] | Fold Change in EC50 Relative to WT HIV-1 [4] | Fold Change in EC50 Relative to WT HIV-1 [5] | Fold Change in EC50 Relative to WT HIV-1 [6] | Fold Change in EC50 Relative to WT HIV-1 [7] | Fold Change in EC50 Relative to WT HIV-1 [8] | Fold Change in EC50 Relative to WT HIV-1 [9] | I84V/L90M fold change [10] |
| --- | --- | --- | --- | --- | --- | --- | --- | --- | --- | --- |
| CCCCOC(=O)C(C)NP(=O)(COc1ccc(CC(NC(=O)OC2COC3OCCC23)C(O)CN(CC(C)C)S(=O)(=O)c2ccc(OC)cc2)cc1)NC(C)C(=O)OCCCC (centres unmarked) [GS-16503] | 0.9 fold | 1 fold | 0.6 fold | 1.2 fold | 3.3 fold | 1 fold | 0.4 fold | 1 fold | 0.5 fold |  |
| CCOC(=O)C(C)NP(=O)(COc1ccc(CC(NC(=O)OC2COC3OCCC23)C(O)CN(CC(C)C)S(=O)(=O)c2ccc(OC)cc2)cc1)Oc1ccccc1 (centres unmarked) [drawing 608 R1=OPh R2=Ala-Et] |  |  |  |  |  |  |  |  |  | − (≦3) |
| CCCCOC(=O)C(C)NP(=O)(COc1ccc(CC(NC(=O)OC2COC3OCCC23)C(O)CN(CC(C)C)S(=O)(=O)c2ccc(OC)cc2)cc1)NC(C)C(=O)OCCCC (centres unmarked) [drawing 606 R1=Ala-Bu R2=Ala-Bu] |  |  |  |  |  |  |  |  |  | − (≦3) |
